Results of unrelated studies side by side (data: NIAID ChemDB).

Shared fields: growth or infection tests

A number after MIC or MFC names an inhibition level or a share of isolates. Lines come from different laboratories, so protocols vary. Zone: diameter of growth inhibition. ECn: concentration that inhibits the pathogen or its effect by n%. Percent inhibition refers to the dose given; in toxicity tests it is the harm to the cells. Two numbers with a dash give a range or band. An empty or dashed field is not shown.

structure | endpoint | dose | method | strain | species | cells | result
CC(C)(O)c1cn(-c2ccccc2)nn1 | inhibition | 2048 µg/mL | broth dilution | URM 4804 | Candida parapsilosis |  | 0%
Oc1cccc(C=Nc2ccccc2O)c1 | MIC99 |  |  | 29/10893 | Cryptococcus gattii |  | 4 µg/mL
C[C@@H](c1ncncc1F)[C@](O)(Cn1cncn1)c1ccc(F)cc1F | MIC |  | broth dilution | ICB 107 | Cryptococcus gattii |  | 1 µg/mL
Cn1cc(C(=O)NCc2ccc(Cl)cc2)c(=O)c2cc(CN3CCOCC3)ccc21 | inhibition | 4.9 µM | plaque count | MC varicella isolate | Varicella zoster virus | HFF | 90%
CC1Cc2c(n3ncc(CC4CC4)c3n(-c3ccc(C(=O)NCO)cc3)c2=O)CN1C(=O)c1ccc(Br)c(C(F)(F)F)c1 | EC50 |  | luminescence |  | Hepatitis B virus | HepG2.117 | 0.05–0.5 µM
O=C(Nc1ccc(F)c(Cl)c1)N1CCn2c(c3n(c2=O)CCN(Cc2ccccc2)C3=O)C1 | EC50 |  | PCR |  | Hepatitis B virus | HepG2.2.15 | 0.5–5 µM
O=C(NN=CC1C(c2ccccc2)=Nc2ccc(Cl)cc21)N1c2ccccc2C=Cc2ccccc21 | zone | 750 µg/mL | agar diffusion | MTCC-1782 | Aspergillus terreus |  | 9 mm
CO[C@H]1/C=C/O[C@@]2(C)Oc3c(C)c(O)c4c(O)c(c5c(c4c3C2=O)NC2(CCN(CC(C)C)CC2)N=5)=NC(=O)/C(C)=C\C=C\[C@H](C)[C@H](O)[C@@H](C)[C@@H](O)[C@@H](C)[C@H](OC(C)=O)[C@@H]1C | MIC |  |  | LYN | Mycobacterium avium intracellulare |  | 0.5 µg/mL
O=C(O)CP(=O)(O)O | EC50 |  | cytopathic effect | OKA (WILD TYPE) | Varicella zoster virus | HEL | 50.7 µM
CCC(CC)[C@H](NC(C)=O)[C@@H]1[C@H](O)[C@@H](C(=O)O)C[C@H]1N=C(N)N | EC50 |  |  | Influenza A/Sydney/05/97 (H3N2) | Influenza A virus | MDCK | 0.19 µM
OC[C@H]1O[C@@H](n2c(Br)nc3cc(Cl)c(Cl)cc32)[C@H](O)[C@@H]1O | EC50 |  | hybridisation | 2916RAE (LEU397ARG) | Human cytomegalovirus | MRC-5 | 0.48 µM
O=c1[nH]c(=O)n([C@H]2C[C@H](O)[C@@H](CO)O2)cc1Br | inhibition | 0.053 µg/mL | hybridisation |  | Murine polyoma virus | ME | 31.1%
Cc1cc(CCCOc2c(C)cc(-c3noc(C(F)(F)F)n3)cc2C)on1 | EC50 |  | cytopathic effect / visual reading | Isolate 35 | Rhinovirus | OHIO HELA-I | 0.05 µg/mL
CC(=O)N[C@H]1[C@H]([C@H](O)[C@H](O)CO)OC(C(=O)O)=C[C@@H]1N=C(N)N | EC50 |  |  | Influenza A/Beijing/32/92 (H3N2) | Influenza A virus | MDCK | 0.65 µM
CNC(=O)c1ccc(-n2c(=O)c3c(n4ncc(CC5CC(F)(F)C5)c24)CN(C(=O)c2ccc(Br)c(Cl)c2)CC3)cc1 | EC50 |  | luminescence |  | Hepatitis B virus | HepG2.117 | 0.05–0.5 µM
CN[C@H]1CC[C@@H](c2ccc(Cl)c(Cl)c2)c2ccccc21 | MIC90 |  | broth dilution | Bt31 | Cryptococcus neoformans |  | 4 µg/mL
CC(C)N=C(N)/N=C(\N)NOCCCOc1cc(Cl)c(Cl)cc1Cl | MIC |  |  | 3010 | Mycobacterium avium complex |  | 32 µg/mL
Nc1nc2c(ncn2CCC(CO)CO)c(=O)[nH]1 | EC50 |  | cytopathic effect | Clinical isolate VZV-12 | Varicella zoster virus | HEL | 4.27 µM
CC(C)CS[C@@H]1C[C@H](n2cnc3c(N)ncnc32)[C@@H](O)[C@H]1O | EC50 |  | neutral red |  | Measles virus | CV-1 | >100 µg/mL
CC(C)(O)c1cn(-c2cccc3ccccc23)nn1 | inhibition | 2048 µg/mL | broth dilution | URM 4818 | Candida parapsilosis |  | 0%
OC[C@H]1O[C@@H](n2cnc3c(SCc4ccc(Cl)cc4Cl)ncnc32)[C@H](O)[C@@H]1O | inhibition | 5 µM |  | RH (WILD TYPE) | Toxoplasma gondii |  | 5.2%
Nc1c(S(=O)(=O)[O-])cc2cc(S(=O)(=O)[O-])ccc2c1O | inhibition | 5 µg/mL | cytopathic effect | TYPE 3 | Adenovirus | Human embryonic lung cells | 10%
N#Cc1cc(C(=O)N2CCn3c(c(C(=O)NCc4ccccc4-c4ncccn4)n(-c4ccc(OC5CC5)cc4)c3=O)C2)ccc1Br | EC50 |  | PCR |  | Hepatitis B virus | HepG2.117 | 0.1–0.5 µM
Nc1ccc2c(O)cc(S(=O)(=O)[O-])cc2c1S(=O)(=O)[O-] | inhibition | 10 µg/mL | cytopathic effect |  | Herpes simplex virus | Human conjunctiva cells | 0%
CO/N=C1\CN(c2nc3c(cc2F)c(=O)c(C(=O)O)cn3C2CC2)CC1CN | MIC50 |  |  | 21 isolates ciprofloxacin-resistant | Streptococcus pneumoniae |  | 0.25 µg/mL
OC[C@H]1O[C@@H](n2c(Cl)nc3cc(Cl)c(Cl)cc32)[C@H](O)[C@@H]1O | EC95 |  | virus yield | C4 (D341E) | Human cytomegalovirus |  | 25 µM
C#CCc1cnn2c3c(c(=O)n(-c4ccc(C(=O)NC)cc4)c12)CCN(C(=O)c1ccc(Br)c(C(F)(F)F)c1)C3 | EC50 |  | luminescence |  | Hepatitis B virus | HepG2.117 | ≤0.05 µM
CCOC(=O)c1cc2c(s1)-c1ccccc1N(C(=O)c1ccc(NC(=O)c3ccccc3-c3ccccc3)cc1)CC2 | EC50 |  | plaque count | LONG | Respiratory syncytial virus | HeLa | >25 µM
C=CCc1ccc(O)c(OC)c1 | MIC90 |  | turbidity | 2622 | Candida glabrata |  | 500 µg/mL
O=C(O)P(=O)(O)O | EC50 |  | cytopathic effect | Clinical isolate VZV-23 | Varicella zoster virus | HEL | 98.5 µM
CCC(CC)O[C@@H]1C=C(C(=O)O)C[C@H](N)[C@H]1NC(C)=O | EC50 |  |  | Panama/45/90 | Influenza B virus | MDCK | 1.5 µM
O=c1[nH]c(=O)n([C@@H]2O[C@H](CO)[C@@H](O)[C@@H]2O)cc1/C=C/Br | EC50 |  | cytopathic effect | Oka penciclovir-resistant/A | Varicella zoster virus | HEL | 0.0003 µM
O=c1[nH]c(=O)n([C@H]2C[C@H](O)[C@@H](CO)O2)cc1I | MIC |  |  | SCRUS | Herpes simplex virus 1 |  | 1.1 µg/mL
CC(N)C12CC3CC(CC(C3)C1)C2 | EC50 |  | ELISA | H3N2 10 french isolates | Influenza A virus | VERO | 0.07 µg/mL
Cc1ccc(-n2cc(C(C)(C)O)nn2)cc1C | inhibition | 2048 µg/mL | broth dilution | URM 916 | Candida tropicalis |  | 0%
O=S(=O)([O-])c1ccc(NS(=O)(=O)c2ccccc2)c2c(S(=O)(=O)[O-])cccc12 | inhibition | 10 µg/mL | cytopathic effect | TYPE 3 | Adenovirus | Human amnion AV3 cells | 0%
O=C1CCc2cc(-n3c(C(=O)NCc4ccccc4)c4n(c3=O)CCN(C(=O)c3ccc(Br)c(Cl)c3)C4)ccc2N1 | EC50 |  | PCR |  | Hepatitis B virus | HepG2.117 | 0.5–5 µM
O=C(NN1C(=O)CSC1C1C(c2ccccc2)=Nc2ccccc21)N1c2ccccc2C=Cc2ccccc21 | zone | 500 µg/mL | agar diffusion | MTCC-3567 | Aspergillus oryzae |  | 12 mm
Nc1nc2c(ncn2COC(CO)CO)c(=O)[nH]1 | EC90 |  | plaque count | VR6264 (ganciclovir-resistant) | Human cytomegalovirus |  | 33.7 µM
CC(C)N=C(N)c1ccc2nc(-c3ccc4c(c3)Cc3cc(-c5nc6ccc(C(N)=NC(C)C)cc6[nH]5)ccc3-4)[nH]c2c1 | MFC |  |  | Isolate 2281 | Candida albicans |  | 6.25 µg/mL
Cc1ccc2c(c1)C(C1SCC(=O)N1NC(=O)N1c3ccccc3C=Cc3ccccc31)C(c1ccccc1)=N2 | zone | 750 µg/mL | agar diffusion | MTCC-3567 | Aspergillus oryzae |  | 5 mm
C[C@@H](NC(=O)c1c2n(c(=O)n1-c1ccc(OC3CC3)cc1)CCN(C(=O)c1ccc(Br)c(Cl)c1)C2)c1ccc(OC(F)F)cc1F | EC50 |  | PCR |  | Hepatitis B virus | HepG2.117 | 0.1–0.5 µM
CCO/N=C/c1ccc(OCCC2CCN(c3ccc(Cl)nn3)CC2)cc1 | EC50 |  | neutral red | thompson (ICAM-1 receptor group 6 | Rhinovirus | KB | 0.003 µM
Nc1ncnc2c1ncn2[C@@H]1C[C@H](N)[C@@H](O)[C@H]1O | EC50 |  | neutral red | Chicago | Measles virus | CV-1 | <0.1 µg/mL
O=C(Nc1ccc(C(=O)N2CCc3cc(C(=O)N4CCOCC4)sc3-c3ccccc32)cc1)c1ccccc1-c1ccccc1 | EC50 |  | plaque count | LONG | Respiratory syncytial virus | HeLa | 4.3 µM
C/C=C/C/C=C/CCC(=O)[C@H]1O[C@H]1C(N)=O | MIC |  |  | SJ260 (F143) | Escherichia coli |  | 20 µg/mL
Cc1nc(NCCCCNc2ccnc3cc(Cl)ccc23)nc(-c2ccccc2[N+](=O)[O-])c1C(=O)OC(C)C | MIC99 |  |  | 27JF | Cryptococcus neoformans |  | 4 µg/mL
CC(C)(O)c1cn(-c2ccc3ccccc3c2)nn1 | inhibition | 2048 µg/mL | broth dilution | URM 4387 | Candida albicans |  | 0%
Nc1ccc(S(=O)(=O)O)cc1 | inhibition | 50 µg/mL | cytopathic effect | TYPE 3 | Adenovirus | Human embryonic lung cells | 0%
Oc1ccccc1N=Cc1cccc(O)c1O | MIC |  | broth dilution | VM-MCMMPI | Cryptococcus neoformans |  | 4 µg/mL
CCCCCCCCCCCCOC(=O)[C@]1(O)C[C@@H](O)[C@@H](O)[C@H](OC(=O)/C=C/c2ccc(O)c(O)c2)C1 | MIC50 |  | absorbance | AMP 9 | Aspergillus flavus |  | 1400 µM
Nc1ncnc2c1ncn2[C@@H]1CC[C@@H](O)[C@H]1O | EC50 |  | cytopathic effect | TN1994 | Measles virus | CV-1 | 0.1 µg/mL
N#Cc1ccc(CSc2ncnc3c2ncn3[C@@H]2O[C@H](CO)[C@@H](O)[C@H]2O)cc1 | inhibition | 10 µM |  | RH adenosine kinase-deficient | Toxoplasma gondii |  | 0%
Oc1ccccc1N=Cc1ccc2c(c1)OCO2 | MIC99 |  |  | ATCC 32608 | Cryptococcus gattii |  | 16 µg/mL
O=C(NCc1ccccc1)c1c2n(c(=O)n1-c1ccc3cn[nH]c3c1)CCN(C(=O)c1ccc(Br)c(Cl)c1)C2 | EC50 |  | PCR |  | Hepatitis B virus | HepG2.117 | 0.1–0.5 µM
O=S(=O)([O-])c1cc(S(=O)(=O)[O-])c2cc(NS(=O)(=O)c3ccccc3)ccc2c1 | inhibition | 5 µg/mL | cytopathic effect |  | Rhinovirus | Human amnion AV3 cells | 20%
N#Cc1cc([N+](=O)[O-])ccc1Oc1ccc(Cl)c(Cl)c1 | inhibition | 6.25 µg/mL |  | TYPE A21 | Coxsackie virus | VERO | 100%
Nc1nc2c(ncn2COC(CO)CO)c(=O)[nH]1 | EC50 |  | cytopathic effect | Oka CF1368-resistant | Varicella zoster virus | HEL | 2.6 µM
O=S(=O)([O-])c1ccc(O)c2ccccc12 | inhibition | 10 µg/mL | cytopathic effect |  | Herpes simplex virus | Human amnion AV3 cells | 0%
CCC(CC)O[C@@H]1C=C(C(=O)O)C[C@H](N)[C@H]1NC(C)=O | EC50 |  | plaque count | H1N1 isolate C1D | Influenza A virus | MDCK | ≤0.01 µg/mL
O=C(NCc1ccccc1)c1c2n(c(=O)n1-c1cccc(F)c1)CCN(C(=O)c1ccc(Br)c(Cl)c1)C2 | EC50 |  | PCR |  | Hepatitis B virus | HepG2.117 | 0.5–5 µM
Nc1ncnc2c1ncn2[C@@H]1C=C[C@@H](O)[C@H]1O | EC50 |  | neutral red | Halonen | Measles virus | CV-1 | <0.1 µg/mL
CNC(=O)c1ccc(-n2c(=O)c3c(n4ncc(CC(C)C)c24)CN(C(=O)c2ccc(Br)c(C(F)(F)F)c2)[C@@H](C)C3)cc1 | EC50 |  | luminescence |  | Hepatitis B virus | HepG2.117 | 0.05–0.5 µM
CC(C)Nc1nc2cc(Cl)c(Cl)cc2n1[C@H]1O[C@@H](CO)[C@H](O)[C@@H]1O | EC50 |  | hybridisation | C9003 | Human cytomegalovirus | MRC-5 | 0.12 µM
CCCC(CCC)C(NC(C)=O)C1C(N=C(N)N)CC(C(=O)O)C1O | EC50 |  |  | H1N1 A/NWS/33 | Influenza A virus | MDCK | 21 µM
O=C(O)c1cc(S(=O)(=O)[O-])ccc1O | inhibition | 5 µg/mL | cytopathic effect | TYPE 3 | Adenovirus | Human amnion AV3 cells | 0%
O=C(NCc1c(F)cccc1F)c1c2n(c(=O)n1-c1ccc(OC3CC3)cc1)CCN(C(=O)c1ccc(Br)c(Cl)c1)C2 | EC50 |  | PCR |  | Hepatitis B virus | HepG2.117 | 0.1–0.5 µM

8 of the rows above, restated:

| structure | endpoint | dose | method | strain | species | cells | result |
|---|---|---|---|---|---|---|---|
| Oc1ccccc1N=Cc1ccc2c(c1)OCO2 | MIC99 |  |  | ATCC 32608 | Cryptococcus gattii |  | 16 µg/mL |
| C#CCc1cnn2c3c(c(=O)n(-c4ccc(C(=O)NC)cc4)c12)CCN(C(=O)c1ccc(Br)c(C(F)(F)F)c1)C3 | EC50 |  | luminescence |  | Hepatitis B virus | HepG2.117 | ≤0.05 µM |
| CCO/N=C/c1ccc(OCCC2CCN(c3ccc(Cl)nn3)CC2)cc1 | EC50 |  | neutral red | thompson (ICAM-1 receptor group 6 | Rhinovirus | KB | 0.003 µM |
| Nc1ccc2c(O)cc(S(=O)(=O)[O-])cc2c1S(=O)(=O)[O-] | inhibition | 10 µg/mL | cytopathic effect |  | Herpes simplex virus | Human conjunctiva cells | 0% |
| CCCCCCCCCCCCOC(=O)[C@]1(O)C[C@@H](O)[C@@H](O)[C@H](OC(=O)/C=C/c2ccc(O)c(O)c2)C1 | MIC50 |  | absorbance | AMP 9 | Aspergillus flavus |  | 1400 µM |
| O=c1[nH]c(=O)n([C@@H]2O[C@H](CO)[C@@H](O)[C@@H]2O)cc1/C=C/Br | EC50 |  | cytopathic effect | Oka penciclovir-resistant/A | Varicella zoster virus | HEL | 0.0003 µM |
| O=c1[nH]c(=O)n([C@H]2C[C@H](O)[C@@H](CO)O2)cc1I | MIC |  |  | SCRUS | Herpes simplex virus 1 |  | 1.1 µg/mL |
| O=C(Nc1ccc(F)c(Cl)c1)N1CCn2c(c3n(c2=O)CCN(Cc2ccccc2)C3=O)C1 | EC50 |  | PCR |  | Hepatitis B virus | HepG2.2.15 | 0.5–5 µM |